Library screen at single concentrations

Mtb glucose medium: 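Growth of Mycobacterium tuberculosis over 3 days (7H9 medium with glucose and tyloxapol); the read-out is not stated. Compounds at 500 µM. Higher reads as more growth inhibition (inferred: compounds with an IC50 in retests scored well above the rest). Size under these conditions: about 18,000 compounds, about 1,400 of them at 50% or above in at least one test.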
Mtb cholesterol medium: 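Phenotypic screen: M. tuberculosis growth, cholesterol and DPPC medium, 4 days; the read-out is not stated. Concentration: 500 µM. Direction is inferred from retests: higher values go with more growth inhibition. About 18,000 compounds were tested under these conditions; 5% (about 900) showed 50% or more at least once.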

The filed quantity is “Percent Effect” (%).
The controls that fix the scale are not given in the record; negative values are as filed.
This is part of a subset picked to be rich in strong results.
A dash means the value is not listed here; it may have been measured.

With N[C@@H]1CCN(Cc2ccc(F)c(C(F)(F)F)c2)C[C@H]1O the screen gave Mtb glucose medium: 48.94%; Mtb cholesterol medium: 29.54%.
With CCOc1ncccc1CN(C)C(=O)c1ccco1 the screen gave Mtb glucose medium: 32.41%.
With CCC(O)CN1CCN(C(=O)c2cccn2C)CC1 (stereo not given) the screen gave Mtb glucose medium: 11.05%.
With CNC(=O)c1sc(NC2CC2)nc1C the screen gave Mtb glucose medium: 68.04%; Mtb cholesterol medium: 83.15%.
With O=S1(=O)CCNC(C2CCC2)C1 (stereo not given) the screen gave Mtb cholesterol medium: -33.51%.
With NCc1noc(-c2cccc(Br)c2)n1 the screen gave Mtb glucose medium: 62.02%; Mtb cholesterol medium: 66.51%.
With COc1c(CNCCS(C)(=O)=O)c(C(C)C)nn1C the screen gave Mtb glucose medium: 11.16%; Mtb cholesterol medium: 56.89%.
With Cn1cncc1CCNC(=O)c1cc(Cl)cn1C the screen gave Mtb cholesterol medium: 6.431%.
With CC(CNC(=O)Cn1cccn1)Sc1ccccc1 (stereo not given) the screen gave Mtb glucose medium: 75.76%; Mtb cholesterol medium: 71.63%.
With CS(=O)(=O)N1CCC(CC(=O)NCc2ccccc2)C1 (stereo not given) the screen gave Mtb glucose medium: 7.918%; Mtb cholesterol medium: -16.79%.
With CCN1CCOC(C(=O)NCCOC)C1 (stereo not given) the screen gave Mtb glucose medium: -6.583%.
With Cn1cncc1CCN the screen gave Mtb glucose medium: 2.588%.
With COCc1ccccc1C(=O)NCCN1CCCC1 the screen gave Mtb cholesterol medium: -3.266%.
With CCCN1CCN(C(=O)c2c(F)cccc2F)CC1 the screen gave Mtb glucose medium: 5.776%.
With Cc1cccc(C(=O)NCC(C)N2CCCC2)n1 (stereo not given) the screen gave Mtb glucose medium: 50.79%; Mtb cholesterol medium: 14.26%.
With COc1ccnc(NCCS(=O)(=O)c2ccccc2)n1 the screen gave Mtb glucose medium: 65.5%; Mtb cholesterol medium: 57.15%.
With CN(C)c1cc(Cn2cnc3sccc3c2=O)ccn1 the screen gave Mtb glucose medium: 52.7%.
With NC[C@]12C[C@H]1CCN2Cc1ccccc1 the screen gave Mtb glucose medium: 48.28%; Mtb cholesterol medium: 52.87%.
With Cc1ccnc(NC(C)c2ccc(S(N)(=O)=O)cc2)c1 (stereo not given) the screen gave Mtb cholesterol medium: 8.925%.
With COc1ncccc1C(=O)NC(C)Cn1cccn1 (stereo not given) the screen gave Mtb glucose medium: 8.297%; Mtb cholesterol medium: -9.672%.
With COc1ccc(Br)c(CN)c1 the screen gave Mtb glucose medium: 62.96%; Mtb cholesterol medium: 55.1%.
With O=C(NC1=NCCS1)c1cc(Br)c[nH]1 the screen gave Mtb glucose medium: 25.36%; Mtb cholesterol medium: 14.38%.
With CCc1ccccc1NC(=O)CN the screen gave Mtb glucose medium: -12.44%.
With CCC1CN(CCN)CCO1 (stereo not given) the screen gave Mtb cholesterol medium: -10.27%.
With CN(C)c1cc(CNC(=O)NC2CCCC2)ccn1 the screen gave Mtb glucose medium: 17.26%.
With O=C1CCCCNC1 the screen gave Mtb cholesterol medium: -1.086%.
With CCCc1cc(C(=O)NC(CC)c2nc(C)c[nH]2)[nH]n1 (stereo not given) the screen gave Mtb glucose medium: -5.506%.
With COc1cc(CN2CCCNCC2)cc2c1OCO2 the screen gave Mtb glucose medium: 14.7%.
With Cc1ccc(C(N)CN2CCOCC2)cc1 (stereo not given) the screen gave Mtb glucose medium: 73.72%; Mtb cholesterol medium: 57.64%.
With OC1(Cc2cccnc2)CCNCC1 the screen gave Mtb cholesterol medium: 0.1484%.
With CC(NC(=O)C(C)(C)C)C(=O)NCc1ccccc1F (stereo not given) the screen gave Mtb glucose medium: 3.57%.
With CCS(=O)(=O)c1cc(OC)c(OC)cc1C the screen gave Mtb glucose medium: 21.99%.
With NC(=O)C(Sc1nncs1)c1ccc(Br)cc1 (stereo not given) the screen gave Mtb glucose medium: 68.09%; Mtb cholesterol medium: 72.08%.
With NCCC1CN(Cc2cc3ccccc3s2)CCO1 (stereo not given) the screen gave Mtb glucose medium: 73.14%; Mtb cholesterol medium: 61.99%.
With Cc1cccc2c1C(=O)NCCN2 the screen gave Mtb glucose medium: -0.9214%.
With Cn1ccnc1CN1CCCCC1CN1CCOCC1 (stereo not given) the screen gave Mtb glucose medium: 2.077%.
With CNC(=O)Cn1cc(-c2ccnc3c2ccn3C)cn1 the screen gave Mtb glucose medium: 2.616%.
With Cc1[nH]ncc1CCCNC(=O)CCN the screen gave Mtb glucose medium: -5.272%.
With Cn1nc(C(N)=O)cc1C(F)(F)F the screen gave Mtb glucose medium: 5.468%.
With CC(=O)c1ccccc1-n1cccn1 the screen gave Mtb glucose medium: 6.92%.
With CNC(=O)c1cc2ccccc2[nH]c1=O the screen gave Mtb cholesterol medium: -25.87%.
With COCCN(C)CCCNC(=O)c1cnc(C)cn1 the screen gave Mtb glucose medium: 5.887%.
With Cc1ccc(C(=O)N(C)C(C)CN)cc1C (stereo not given) the screen gave Mtb glucose medium: 10.24%.

The first 4 entries again:

structure	Mtb glucose medium	Mtb cholesterol medium
N[C@@H]1CCN(Cc2ccc(F)c(C(F)(F)F)c2)C[C@H]1O	48.94%	29.54%
CCOc1ncccc1CN(C)C(=O)c1ccco1	32.41%	-
CCC(O)CN1CCN(C(=O)c2cccn2C)CC1 (stereo not given)	11.05%	-
CNC(=O)c1sc(NC2CC2)nc1C	68.04%	83.15%

Measurements from “University of Dundee, Small-Polar-MMV Screening Library” (2021), ChEMBL document CHEMBL3988442.